PubChem BioAssay AID1259414 – Drosophila RNAi Screening Center – 2018

Aim: 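Fly genes that alter Wolbachia amount inside host cells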 (primary screen)
Cells: Drosophila JW18 cells infected with Wolbachia
Knock-down reagent: long dsRNA against Drosophila genes, 0.25 µg dsRNA per well of a 384-well plate
Duration: 5 days
Conditions: cells persistently infected with Wolbachia before knock-down; no added drug
Measurement: 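Automated imaging of bacterial rRNA staining divided by host cell count, reported as plate-normalised robust z-score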
Direction: Wolbachia per cell robust z: higher = more Wolbachia per host cell than the plate typical
Call rule: 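Hit when robust z is 1.5 or more, or -1.5 or less, in at least two of three replicates; excludes dsRNAs with several or no targets, genes not expressed in JW18 and well A1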
The screen tested about 24,000 reagents; shown is a random part of those with a known target gene and a result. Of all reagents, about 1,210 (5%) were called active. 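Inactive calls also include excluded dsRNAs with several or no targets, genes unexpressed in JW18, and well A1, regardless of score.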 The numbers tell different reagents against one gene apart. A plus sign joins genes that one reagent is predicted to hit.

{"target":"sktl (skittles)","dsRNA no.":1,"Wolbachia per cell robust z, rep 1":-0.501,"Wolbachia per cell robust z, rep 2":0.118,"Wolbachia per cell robust z, rep 3":1.15,"call":"inactive"}
{"target":"corto","dsRNA no.":1,"Wolbachia per cell robust z, rep 1":-0.0137,"Wolbachia per cell robust z, rep 2":-3.27,"Wolbachia per cell robust z, rep 3":-4.7,"call":"active"}
{"target":"corto","dsRNA no.":2,"Wolbachia per cell robust z, rep 1":0.118,"Wolbachia per cell robust z, rep 2":-0.311,"Wolbachia per cell robust z, rep 3":-0.26,"call":"inactive"}
{"target":"EMC2B (ER membrane protein complex subunit 2B)","dsRNA no.":1,"Wolbachia per cell robust z, rep 1":0.0465,"Wolbachia per cell robust z, rep 2":0.0345,"Wolbachia per cell robust z, rep 3":0.225,"call":"inactive"}
{"target":"CG15356","dsRNA no.":1,"Wolbachia per cell robust z, rep 1":0.429,"Wolbachia per cell robust z, rep 2":0.0155,"Wolbachia per cell robust z, rep 3":0.492,"call":"inactive"}
{"target":"osk (oskar)","dsRNA no.":1,"Wolbachia per cell robust z, rep 1":-2.74,"Wolbachia per cell robust z, rep 2":0.463,"Wolbachia per cell robust z, rep 3":-5.75,"call":"active"}
{"target":"IFT20 + CG10395","dsRNA no.":1,"Wolbachia per cell robust z, rep 1":0.5,"Wolbachia per cell robust z, rep 2":0.454,"Wolbachia per cell robust z, rep 3":-0.808,"call":"inactive"}
{"target":"mod (modulo)","dsRNA no.":1,"Wolbachia per cell robust z, rep 1":0.433,"Wolbachia per cell robust z, rep 2":0.348,"Wolbachia per cell robust z, rep 3":-1.11,"call":"inactive"}
{"target":"mod (modulo)","dsRNA no.":2,"Wolbachia per cell robust z, rep 1":0.0655,"Wolbachia per cell robust z, rep 2":-1.1,"Wolbachia per cell robust z, rep 3":-0.61,"call":"inactive"}
{"target":"salt (salty dog)","dsRNA no.":1,"Wolbachia per cell robust z, rep 1":-0.614,"Wolbachia per cell robust z, rep 2":-0.748,"Wolbachia per cell robust z, rep 3":-4.02,"call":"inactive"}
{"target":"salt (salty dog)","dsRNA no.":2,"Wolbachia per cell robust z, rep 1":1.48,"Wolbachia per cell robust z, rep 2":0.649,"Wolbachia per cell robust z, rep 3":-0.618,"call":"inactive"}

Next part, starting with the last 2 of the part before.
{"target":"salt (salty dog)","dsRNA no.":1,"Wolbachia per cell robust z, rep 1":-0.614,"Wolbachia per cell robust z, rep 2":-0.748,"Wolbachia per cell robust z, rep 3":-4.02,"call":"inactive"}
{"target":"salt (salty dog)","dsRNA no.":2,"Wolbachia per cell robust z, rep 1":1.48,"Wolbachia per cell robust z, rep 2":0.649,"Wolbachia per cell robust z, rep 3":-0.618,"call":"inactive"}
{"target":"CR13656 (pseudo)","dsRNA no.":1,"Wolbachia per cell robust z, rep 1":0.797,"Wolbachia per cell robust z, rep 2":1.46,"Wolbachia per cell robust z, rep 3":0.206,"call":"inactive"}
{"target":"CR13656 (pseudo)","dsRNA no.":2,"Wolbachia per cell robust z, rep 1":0.811,"Wolbachia per cell robust z, rep 2":-2.04,"Wolbachia per cell robust z, rep 3":-4.91,"call":"inactive"}
{"target":"prc (pericardin)","dsRNA no.":1,"Wolbachia per cell robust z, rep 1":0.561,"Wolbachia per cell robust z, rep 2":0.115,"Wolbachia per cell robust z, rep 3":0.373,"call":"inactive"}
{"target":"ksh (kish)","dsRNA no.":1,"Wolbachia per cell robust z, rep 1":1,"Wolbachia per cell robust z, rep 2":0.87,"Wolbachia per cell robust z, rep 3":0.943,"call":"inactive"}
{"target":"ksh (kish)","dsRNA no.":2,"Wolbachia per cell robust z, rep 1":-0.446,"Wolbachia per cell robust z, rep 2":0.204,"Wolbachia per cell robust z, rep 3":-0.857,"call":"inactive"}
{"target":"whip (whipple)","dsRNA no.":1,"Wolbachia per cell robust z, rep 1":0.0748,"Wolbachia per cell robust z, rep 2":1.34,"Wolbachia per cell robust z, rep 3":-0.327,"call":"inactive"}
{"target":"CG14427","dsRNA no.":1,"Wolbachia per cell robust z, rep 1":0.566,"Wolbachia per cell robust z, rep 2":-0.36,"Wolbachia per cell robust z, rep 3":0.497,"call":"inactive"}
{"target":"CG14427","dsRNA no.":2,"Wolbachia per cell robust z, rep 1":-2.59,"Wolbachia per cell robust z, rep 2":-0.397,"Wolbachia per cell robust z, rep 3":-0.934,"call":"inactive"}
{"target":"CG6333","dsRNA no.":1,"Wolbachia per cell robust z, rep 1":0.152,"Wolbachia per cell robust z, rep 2":0.584,"Wolbachia per cell robust z, rep 3":0.371,"call":"inactive"}
{"target":"CG4313","dsRNA no.":1,"Wolbachia per cell robust z, rep 1":-1.5,"Wolbachia per cell robust z, rep 2":1.32,"Wolbachia per cell robust z, rep 3":-2.94,"call":"inactive"}
{"target":"CG4313","dsRNA no.":2,"Wolbachia per cell robust z, rep 1":0.927,"Wolbachia per cell robust z, rep 2":2.02,"Wolbachia per cell robust z, rep 3":0.0981,"call":"inactive"}
{"target":"beat-VII (beaten path VII)","dsRNA no.":1,"Wolbachia per cell robust z, rep 1":-0.0159,"Wolbachia per cell robust z, rep 2":-0.109,"Wolbachia per cell robust z, rep 3":-0.0914,"call":"inactive"}
{"target":"beat-VII (beaten path VII)","dsRNA no.":2,"Wolbachia per cell robust z, rep 1":-2.35,"Wolbachia per cell robust z, rep 2":0.456,"Wolbachia per cell robust z, rep 3":0.515,"call":"inactive"}
{"target":"beat-VII (beaten path VII)","dsRNA no.":3,"Wolbachia per cell robust z, rep 1":-0.886,"Wolbachia per cell robust z, rep 2":-1.28,"Wolbachia per cell robust z, rep 3":-0.399,"call":"inactive"}
